Assay results published in PMC10315472.

Experiments:
AMSIN (actinomyces) = test: SPR
[1] = target: emorisin (Emergomyces orientalis); test: SPR

Substance: wild-type SARS-CoV-2 Spike receptor-binding domain (from UniProt P0DTC2 319-527) (domain or fragment)
- koff (AMSIN (actinomyces)): 0.00219 s⁻¹
- kon (AMSIN (actinomyces)): 11300 M⁻¹ s⁻¹
- koff [1]: 0.045 s⁻¹
- kon [1]: 5.92e+06 M⁻¹ s⁻¹
